Pooled drug test results. Numbers come from NIAID ChemDB, via PubChem.

Common to all: whole-cell or culture tests; organism: HIV-1

Neighbouring rows are from separate reports. An empty or dashed field is not shown. ECn: concentration that inhibits the pathogen or its effect by n%.

smiles	read-out	changes	method	conditions	strain or isolate	cell line	value
Fc1cccc(F)c1CCNC(=S)Nc1ccc(Br)cn1	EC50	-	cytopathic effect	-	IIIB	MT-4	0.005 µM
Cc1cn([C@H]2C[C@H](N=[N+]=[N-])[C@@H](CO)O2)c(=O)[nH]c1=O	EC90	RT-K65R L74V M184V Y115F	p24	-	XM-ABC-resistant	PBMC	0.04 µM
CC(C)(C)NC(=O)[C@@H]1CN(Cc2cccnc2)CCN1C[C@@H](O)C[C@@H](Cc1ccccc1)C(=O)N[C@H]1c2ccccc2C[C@H]1O	EC50	PR-L10I K20R M36I/V P63L/S L90M	p24	-	BR58 (PR L10I K20R M36I/V P63L/S L90M)	PBMC	0.005 µM
S=C(NCCc1ccccn1)Nc1ccc(Br)cn1	EC50	-	cytopathic effect / XTT	-	IIIB	MT-4	0.02 µM
C=C(C)OC(=O)N1c2cc(Cl)ccc2NC(=S)C1(C)C	EC50	-	p24	-	MN	H9	0.006 µg/mL
O=C(/C=C/c1ccc(O)c(O)c1)CCc1ccccc1	EC50	-	cytopathic effect / MTT	-	-	MT-4	>15 µM
CC(C)c1cc2c(c(O)c1O)[C@@]1(C(=O)O)CCCC(C)(C)C1CC2	EC50	PR-L10I V11I T12E I15V L19I  R41K M46L L63P A71T V82A L90M	-	-	clinical isolate 1(G MDR X4)	PBMC	0.39 µM
Nc1nc2c(ncn2[C@H]2CC[C@@H](CO)C2)c(=O)o1	EC50	-	RT activity	chronic infection	IIIB	U-937/HIV-1(IIIB) + U-937	36 µg/mL
CCc1cc(NCc2nc3c(Cl)ccc(Cl)c3o2)c(=O)[nH]c1C	EC90	RT-Y181C	p24	-	R88703-resistant IIIB (RT Y181C)	MT-4	7.7 µM
O=C(/C=C/c1ccc(O)cc1)c1cccc(C(=O)/C=C/c2ccc(O)cc2)c1	EC50	-	cytopathic effect / MTT	-	-	MT-4	>35 µM
Cc1nc(CCCCCCC(=O)c2ccccc2)n2ncccc12	EC50	-	cytopathic effect	-	RF	MT-4	0.59 µM
Nc1nc2c(ncn2[C@@H]2C[C@H](COP(=O)(O)O)[C@@H](O)[C@H]2O)c(=O)o1	EC50	-	RT activity	-	IIIB	H9	>500 µg/mL
O=C1c2ccccc2C(=O)N1CCOC(=S)N(C(=O)c1cccnc1Cl)c1ccc(Cl)cc1	EC50	RT-K103N Y181C	cytopathic effect / MTT	-	A17	MT-4	>100 µM
Cc1nc(CCCCCCC(O)c2ccccc2)n2nc(Cl)ccc12	EC50	-	p24	-	RF	C8166	<0.08 µM
Cc1cn([C@H]2C[C@H](N=[N+]=[N-])[C@@H](CO)O2)c(=O)[nH]c1=O	EC90	-	cytopathic effect / XTT	-	IIIB	MT-4	0.08 µM
COc1ccc(C[C@H]2COC(=O)[C@@H]2Cc2ccc(O[C@@H]3O[C@H](CO)[C@@H](O)[C@H](O)[C@H]3O)c(OC)c2)cc1OC	EC50	-	RT activity	-	IIIB	H9	<5 µM
Nc1nc2c(ncn2[C@H]2C=C[C@@H](CO)C2)c(=O)o1	EC50	-	RT activity	-	IIIB	H9	320 µg/mL
Cc1cn([C@H]2C[C@H](N=[N+]=[N-])[C@@H](CO)O2)c(=O)[nH]c1=O	EC50	RT-Y181C	cytopathic effect	-	J-2 (RT-Y181C)	CEM	0.015 µM
CC(C)CN(C[C@@H](O)[C@H](Cc1ccccc1)NC(=O)O[C@H]1CCOC1)S(=O)(=O)c1ccc(N)cc1	EC50	-	p24 / luminescence	-	92UG037	PBMC	0.051 µM
COc1ccc2c(C)nc(CCCCCCC(=O)c3ccccc3)n2n1	EC50	-	cytopathic effect	-	RF	MT-4	9.3 µM
O=c1[nH]cnc2c1ncn2[C@H]1CC[C@@H](CO)O1	EC90	RT-M41L D67N K70R T215Y K219Q	p24	-	XM-AZT-resistant	MT-4	11 µM
NC(=O)C(c1ccccc1)(c1ccccc1)C1CCCN(CCC2CCCCC2)C1	EC50	-	cytopathic effect / XTT	-	NL4-3	MT-2	4.7 µM
CCc1c(Sc2ccccn2)n(COCc2ccccc2)c(=O)[nH]c1=O	EC50	RT-K103N Y181C	cytopathic effect / XTT	-	IIIB	CEM + CEM-SS	>13.6 µM
O=C1c2ccccc2C(=O)N1CCOC(=S)N(C(=O)c1ccccc1)c1ccccc1	EC50	RT-K103N Y181C	cytopathic effect / MTT	-	A17	MT-4	>100 µM
Cc1cn([C@H]2C[C@H](N=[N+]=[N-])[C@@H](CO)O2)c(=O)[nH]c1=O	EC50	-	RT activity	-	H112-2 (AZT-susceptible)	PBMC	0.005 µM
Nc1nc2c(ncn2[C@@H]2C[C@H](CO)[C@@H](O)[C@H]2O)c(=O)o1	EC50	-	RT activity	-	IIIB	CEM	240 µg/mL
CC(C)CN(C[C@@H](O)[C@H](Cc1ccc(F)cc1)NC(=O)O[C@H]1CCO[C@H]2OCC[C@H]21)S(=O)(=O)c1ccc2nc(NC(C)C)sc2c1	EC50	-	p24 / luminescence	-	97ZA003	PBMC	0.0021 µM
Cc1nc(CCCCCCC(=O)c2ccccc2)n2nc(-n3cccn3)ccc12	EC50	-	-	-	RF	MT-4	>25 µM
NC(=O)C(c1ccccc1)(c1ccccc1)[C@H]1CCCN(CCc2ccc3c(c2)CCO3)C1	EC50	-	p24	-	BaL	PM1	11 µM
COc1cc(C[C@H]2C(=O)OC[C@@H]2Cc2ccc(OC)c(OC)c2)ccc1O	EC50	-	p24	-	IIIB	H9	<0.13 µM
CC(C)CN(C[C@@H](O)[C@H](Cc1ccccc1)NC(=O)O[C@H]1CCOC1)S(=O)(=O)c1ccc(N)cc1	EC50	I401T	p24 / ELISA	-	IIIB	MT-2	0.0473 µM
O=C1c2ccccc2C(=O)N1CCOC(=S)N(C(=O)c1ccccc1)c1ccc(Cl)cc1	EC50	RT-K103N Y181C	cytopathic effect / MTT	-	A17	MT-4	>100 µM
CCc1c(C(=O)c2cc(C)cc(C)c2)n(CC2CC=CC2)c(=O)[nH]c1=O	EC50	-	cytopathic effect / XTT	clinical isolate	ADA	MM + M/M	0.0003 µM
CO[P@](=O)(c1cc(C)cc(/C=C/C#N)c1)c1c(C(N)=O)[nH]c2ccc(Cl)c(F)c12	EC50	Y181C	-	-	BH10	MT-4	0.0018 µM
O=C1c2ccccc2C(=O)N1CCOC(=S)N(C(=O)c1ccco1)c1ccc([N+](=O)[O-])cc1	EC50	RT-K103N Y181C	cytopathic effect / MTT	-	A17	MT-4	>100 µM
c1cc2c(cc1[C@H]1OC[C@H]3[C@@H]1CO[C@@H]3c1ccc3c(c1)OCO3)OCO2	EC50	-	p24	-	IIIB	H9	<8.2 µM
Cc1cc(C#N)cc(C)c1Oc1nc(Nc2ccc(C#N)cc2)nc(N)c1Br	EC50	E138K	-	-	LAI	TZM-bl	0.0028 µM
Nc1nc2c(ncn2[C@@H]2O[C@H](COP(=O)(O)O)[C@@H](O)[C@H]2O)c(=O)o1	EC50	-	RT activity	chronic infection	IIIB	U-937/HIV-1(IIIB) + U-937	21 µg/mL
Cc1cn([C@H]2C[C@H](N=[N+]=[N-])[C@@H](CO)O2)c(=O)[nH]c1=O	EC50	RT-Y181C	cytopathic effect / XTT	-	IIIB	CEM + CEM-SS	0.03 µM
Cc1cn([C@H]2C[C@H](N=[N+]=[N-])[C@@H](CO)O2)c(=O)[nH]c1=O	EC50	-	-	-	BaL	PBMC	0.009 µM
Fc1cccc(F)c1C1SCc2nc3ccccc3n21	EC50	RT-Y181C	cytopathic effect / XTT	-	IIIB	CEM + CEM-SS	>69 µM
Nc1ncc2ncn([C@H]3CC[C@@H](CO)O3)c2n1	EC50	-	syncytia	-	ROD	C8166	100 µM
Cc1cn([C@H]2C[C@H](N=[N+]=[N-])[C@@H](CO)O2)c(=O)[nH]c1=O	EC50	K112M K113E V128I M200I H219P	p24 / ELISA	-	IIIB	MT-2	0.153 µM
CC(C)(C)NC(=O)[C@@H]1C[C@@H]2CCCC[C@@H]2CN1C[C@@H](O)[C@H](Cc1ccccc1)NC(=O)[C@H](CC(N)=O)NC(=O)c1ccc2ccccc2n1	EC50	-	p24	-	IIIB/LAI	HUT-78/IIIB/LAI + HUT 78	0.6 µM
Cn1cc(C(=O)O)c(=O)c2cc(F)c(N3CC=C(c4ccccc4)CC3)c(C(F)(F)F)c21	EC90	-	p24	-	IIIB	MOLT-4/M0(HIV-1(IIIB)) + MOLT-4	0.3 µM
COc1cc([C@H]2OC[C@H]3[C@@H]2CO[C@@H]3c2ccc3c(c2)OCO3)cc(OC)c1OC	EC50	-	p24	-	IIIB	H9	<10.6 µM
Nc1nc(=O)n([C@@H]2CS[C@H](CO)O2)cc1F	EC50	-	cytopathic effect	-	IIIB	MT-4	0.5 µM
CCc1cc(NCc2nc3c(Cl)ccc(Cl)c3o2)c(=O)[nH]c1C	EC50	RT-L100I Y188H	cytopathic effect / XTT	-	22(RT-L100I Y188H)	MT-4	>10 µM
CC(C)=CCOc1cc(NC(=S)c2ccoc2C)ccc1Cl	EC50	RT-L100V K103R/K Y188H	cytopathic effect	-	B-1 (RT L100V K103R/K Y188H)	CEM	0.013 µg/mL
O=c1[nH]cnc2c1ncn2[C@H]1CC[C@@H](CO)O1	EC50	-	p24	-	NL4-3	MT-2	0.24 µM
O=C(O)COc1cc(OCC(=O)O)c2cc1C(c1ccc(F)cc1)c1cc(c(OCC(=O)O)cc1OCC(=O)O)C(c1ccc(F)cc1)c1cc(c(OCC(=O)O)cc1OCC(=O)O)C(c1ccc(F)cc1)c1cc(c(OCC(=O)O)cc1OCC(=O)O)C2c1ccc(F)cc1	EC50	-	syncytia	-	IIIB	CEM	≥20 µg/mL
CC[C@H]1C(=O)Nc2ccc(F)cc2N1C(=O)OC(C)C	EC50	RT-K103N Y144F	cytopathic effect	-	P-1 (RT-K103N Y144F)	CEM	0.05 µg/mL
O=C1/C(=C/c2ccc(O)c(O)c2)CSC/C1=C\c1ccc(O)c(O)c1	EC50	-	cytopathic effect / MTT	-	-	MT-4	>4 µM
Cc1nc(CCCCCCC(=O)c2ccccc2)n2nc(Cl)ccc12	EC50	-	p24	-	RF	C8166	0.08 µM
CCN(c1nc(F)ccc1NC(C)(C)C)C1CCN(C(=O)c2cc3cc(NC(=O)N4CCN(C)CC4)ccc3[nH]2)CC1	EC50	K112M K113E V128I M200I H219P I401T R409K D437N L441P	p24 / ELISA	-	IIIB	MT-2	0.0261 µM
O=C(/C=C/c1ccc(O)c(O)c1)c1ccc(O)cc1	EC50	-	cytopathic effect / MTT	-	-	MT-4	>4.4 µM
Cc1nc(CCCCCOC(=O)c2ccccc2)n2nc(Cl)ccc12	EC50	-	syncytia	-	RF	C8166	1.6 µM
Cc1cc(/C=C/C#N)cc(C)c1Nc1ccnc(Nc2ccc(C#N)cc2)n1	EC50	E138Q	-	-	LAI	TZM-bl	0.0013 µM
Cc1nc(CCCCCCC(=O)c2ccccc2)n2nc(-n3cncc3C)ccc12	EC50	-	cytopathic effect	-	RF	MT-4	0.01 µM
COc1ccc2c(c1)N(C(=O)OC(C)C)[C@@H](CSC)C(=S)N2	EC50	RT-L100I V106A G190A	p24	-	B9 (RT L100I V106A G190A)	H9	>10 µg/mL
Cc1ccnc2c1NC(=O)c1cccnc1N2C1CC1	EC50	RT-V106I	cytopathic effect / XTT	-	NL4-3	CEM + CEM-SS	>2 µM

Repeating the final 4 entries:

smiles	read-out	changes	method	conditions	strain or isolate	cell line	value
Cc1cc(/C=C/C#N)cc(C)c1Nc1ccnc(Nc2ccc(C#N)cc2)n1	EC50	E138Q	-	-	LAI	TZM-bl	0.0013 µM
Cc1nc(CCCCCCC(=O)c2ccccc2)n2nc(-n3cncc3C)ccc12	EC50	-	cytopathic effect	-	RF	MT-4	0.01 µM
COc1ccc2c(c1)N(C(=O)OC(C)C)[C@@H](CSC)C(=S)N2	EC50	RT-L100I V106A G190A	p24	-	B9 (RT L100I V106A G190A)	H9	>10 µg/mL
Cc1ccnc2c1NC(=O)c1cccnc1N2C1CC1	EC50	RT-V106I	cytopathic effect / XTT	-	NL4-3	CEM + CEM-SS	>2 µM